Drawing on PubChem BioAssay AID2629 (Broad Institute, 2010), this text covers inhibition for 28 molecules.

Protein sequences, listed by entry. Tags and fused reporters are not part of them.
UniProt Q9QR71, whole entry: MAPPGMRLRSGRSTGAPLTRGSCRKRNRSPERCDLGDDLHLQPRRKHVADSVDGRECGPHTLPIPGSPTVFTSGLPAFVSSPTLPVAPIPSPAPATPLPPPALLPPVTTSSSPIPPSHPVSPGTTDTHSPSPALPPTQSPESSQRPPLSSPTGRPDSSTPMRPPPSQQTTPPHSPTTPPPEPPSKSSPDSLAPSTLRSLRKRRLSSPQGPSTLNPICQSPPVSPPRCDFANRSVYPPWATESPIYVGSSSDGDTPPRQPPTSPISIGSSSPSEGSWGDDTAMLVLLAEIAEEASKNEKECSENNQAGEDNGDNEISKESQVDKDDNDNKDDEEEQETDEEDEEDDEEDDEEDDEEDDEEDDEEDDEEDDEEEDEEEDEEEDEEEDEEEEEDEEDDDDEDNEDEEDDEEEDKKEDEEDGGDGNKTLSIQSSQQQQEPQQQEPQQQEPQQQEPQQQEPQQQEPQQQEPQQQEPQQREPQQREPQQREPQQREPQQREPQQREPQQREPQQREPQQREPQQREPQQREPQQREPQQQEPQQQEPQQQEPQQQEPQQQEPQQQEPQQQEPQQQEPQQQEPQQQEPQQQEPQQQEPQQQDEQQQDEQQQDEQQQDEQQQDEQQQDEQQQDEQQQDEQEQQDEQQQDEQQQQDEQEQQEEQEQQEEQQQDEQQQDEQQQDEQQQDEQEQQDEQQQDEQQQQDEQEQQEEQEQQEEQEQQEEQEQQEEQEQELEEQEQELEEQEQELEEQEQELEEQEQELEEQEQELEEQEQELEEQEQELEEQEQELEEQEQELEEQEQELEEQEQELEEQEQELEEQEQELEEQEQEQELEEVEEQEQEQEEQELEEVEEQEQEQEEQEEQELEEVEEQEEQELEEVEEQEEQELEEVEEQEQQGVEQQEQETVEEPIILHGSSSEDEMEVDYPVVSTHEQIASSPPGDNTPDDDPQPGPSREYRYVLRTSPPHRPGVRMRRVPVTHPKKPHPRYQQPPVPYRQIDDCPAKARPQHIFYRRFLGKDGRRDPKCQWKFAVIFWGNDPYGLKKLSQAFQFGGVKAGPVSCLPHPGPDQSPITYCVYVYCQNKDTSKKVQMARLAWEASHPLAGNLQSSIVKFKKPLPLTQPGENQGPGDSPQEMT

The entries are a selection whose mix differs from that of the whole data set. Active and inactive are the calls of the source. Cut-off read from the data, not from the text of the source: active = inhibition mostly above about 10% (no sharp cut-off); inactive = mostly below about 6.7%.

The experiment addresses Protein LANA1 (Human herpesvirus 8 type P (isolate GK18)) (UniProt Q9QR71). The experiment in a line: blockers of LANA interaction with H2A/H2B – biochemical, FP readout, HTS, primary screen (AID 2629). The conditions noted are these: cell-free LANA-H2A/H2B peptide, fluorescence polarization; active compounds read high; concentration not given here. On the technique in general: In fluorescence polarisation assays a small probe gives low polarisation when free and higher when bound to something large.
Broadly, the inhibition is the relative decrease from the control value, in per cent. On to `CP(=O)(OC12CC3CC(CC(C3)C1)C2)OC12CC3CC(CC(C3)C1)C2`, for which the inhibition was inactive: 1.72%.

As for `CCOC(=O)c1ccc(NP(C)(=O)Oc2ccc(Cl)cc2)cc1` (stereo not drawn), the inhibition is inactive: -6.65%.

Take `O=C(Nc1cc([As](=O)(O)O)ccc1O)c1ccccc1`: the inhibition is inactive: -1.25%.

Take `O=[N+]([O-])c1ncn(CCn2ncnc2[N+](=O)[O-])n1`: the inhibition was inactive: 0.788%.

As for `CC(C)(C)C(=O)NC(Sc1ccncn1)C(Cl)(Cl)Cl` (stereo not drawn), the inhibition was inactive: 1.86%.

Turning to `O=C(O)CNc1ccc([As](=O)(O)O)cc1`, the inhibition was inactive: 1.57%.

For `O=[N+]([O-])c1cccc(NC2=NCC(CBr)S2)c1` (stereo not drawn), the inhibition is inactive: 0.198%.

In the case of `CCN(CC)CC(O)COC(=O)C(O)(c1ccccc1)C1CCCCC1` (stereo not drawn), the inhibition is inactive: 0.169%.

For `COc1ccc(C2=NCC(CBr)S2)cc1` (stereo not drawn), the inhibition was inactive: 0.817%.

As for `CP(=O)(Oc1ccccc1)N1CCOC1=O` (stereo not drawn), the inhibition was inactive: 0.403%.

For `Cc1ccc(NP(=O)(Oc2ccccc2)Oc2ccccc2)nc1`, the inhibition was inactive: -7.07%.

For `CCc1ccc(OP(C)(=O)Nc2cccnc2)cc1` (stereo not drawn), the inhibition is inactive: 3.46%.

Take `O=[N+]([O-])c1cc([N+](=O)[O-])c(CCNc2ccccc2)c([N+](=O)[O-])c1`: the inhibition is inactive: -0.36%.

On to `CCc1nc2c(n1)c1c(non1O)c1c2no[n+]1[O-]`, for which the inhibition is inactive: -1.84%.

In the case of `CC(=O)N1C2C3N(C(C)=O)C1C1N(C(C)=O)C(C(N1C(C)=O)N3C(C)=O)N2C(C)=O`, the inhibition was inactive: 1.85%.

Take `O=[N+]([O-])c1cccc2n[nH]nc12`: the inhibition was inactive: 3.43%.

Consider `COc1ccccc1OP(C)(=O)Nc1c(C)n(C)n(-c2ccccc2)c1=O` (stereo not drawn), for which the inhibition is inactive: -0.158%.

`O=C(OCCCN1CCCC1)C(O)(c1ccccc1)C1CCCCC1` (stereo not drawn): the inhibition was inactive: -2.76%.

Take `CCN(/C(=N/P(=O)(N1CCOCC1)N1CCOCC1)N1CCOCC1)c1ccc(OC)cc1`: the inhibition was inactive: 6.48%.

`CP(=O)(Nc1ccc(Cl)cc1)Oc1ccc(F)cc1` (stereo not drawn): the inhibition is inactive: 1.93%.

`COc1ccccc1OP(C)(=O)Nc1ccccc1Br` (stereo not drawn): the inhibition is inactive: -2.98%.

With `Nc1ccc([As](=O)(O)c2ccc(N)cc2)cc1`, the inhibition was inactive: 13.2%.

Regarding `CC(C)(C)c1ccc(OP(C)(=O)O)cc1`, the inhibition was inactive: -0.425%.

With `C[N+]1=C2C=CC=CC=C2SC12C([N+](=O)[O-])=CC([N+](=O)[O-])=C[C-]2[N+](=O)[O-]` (stereo not drawn), the inhibition was inactive: -0.652%.

Turning to `CC1CCN(C(=O)Oc2c(Cl)cc(Cl)c3cccnc23)CC1`, the inhibition is inactive: -0.27%.

For `CC(C)=N/N=C(\N)N[N+](=O)[O-]`, the inhibition is inactive: 0.0112%.

Consider `CN(C)C(=O)c1c([N+](=O)[O-])cc([N+](=O)[O-])cc1[N+](=O)[O-]`, for which the inhibition was inactive: -2.02%.

Turning to `CN(C)C(=O)OCCc1n(C)cc[n+]1C`, the inhibition was inactive: 1.35%.
